Data as given in PMC8557866, “Novel Small Molecule Growth Inhibitor Affecting Bacterial Outer Membrane Reduces Extraintestinal Pathogenic Escherichia coli (ExPEC) Infection in Avian Model” (Microbiology Spectrum, 2021).

Assays:
[1] = system: serum metabolites of chickens; experiment: Effect of GIs on serum metabolome of chickens (LC-MS); type: in vivo; settings: vs NC chickens
[2] = system: cecal microbiota of chickens; experiment: Effect of GIs on cecal microbiota of chickens (16S rRNA metagenomics); type: in vivo
[3] = family level, individual animal 1 of group
[4] = family level, individual animal 2 of group
[5] = family level, individual animal 3 of group
[6] = family level, individual animal 4 of group
[7] = family level, individual animal 5 of group

CC(=O)OC(C(Br)C(=O)c1ccc([N+](=O)[O-])cc1)C(Cl)(Cl)Cl (centres unmarked) [GI-10]
Fold change: 2-Oxo-butanote [1]: 2.9
Fold change: 2′-Deoxyinosine [1]: 1.3
Fold change: 3-Mercaptopyruvate [1]: 1.9
Fold change: 3-Methoxy-4-hydroxyphenylglycoaldehyde [1]: 1.3
Fold change: 4-(3-Pyridyl)-butanoate [1]: 1.9
Fold change: 4-Hydroxy-4-(3-pyridyl)-butanoate [1]: 1.3
Fold change: 4-Imidazolacetate [1]: 1.3
Fold change: 4S-Hydroperoxy,17R-H-docosahexaenoate [1]: 1.2
Fold change: 5-Amino-1-(5-phospho-D-ribosyl)imidiazole-4-carboxamide [1]: 3.3
Fold change: 7S-Hydroperoxy,17R-H-docosahexaenoate [1]: 1.2
Fold change: (S)-Methylmalonate-semialdehyde [1]: 2.9
Fold change: Acetoacetate [1]: 2.9
Fold change: Aspirin triggered resolvin D4 [1]: 1.2
Fold change: Aspirin-triggered resolvin D1 [1]: 1.2
Fold change: Aspirin-triggered resolvin D2 [1]: 1.2
Fold change: Aspirin-triggered resolvin D3 [1]: 1.2
Fold change: Coproporphyrinogen III [1]: 2.9
Fold change: Cytidine [1]: 2.6
Fold change: D-Sorbitol [1]: 1.3
Fold change: Geranyl diphosphate [1]: 5.4
Fold change: Homovanillate [1]: 1.3
Fold change: IMP [1]: 1.6
Fold change: Inosine [1]: 2.4
Fold change: L-Arginine [1]: 2.7
Fold change: L-Lysine [1]: 2.2
Fold change: Nicotine-glucuronide [1]: 1.5
Fold change: Sucrose [1]: 2.6
Fold change: Thymine [1]: 1.3
Fold change: Thyronamine [1]: 2.4
Fold change: Uracil [1]: 1.6
Fold change: Urate [1]: 3.0
Fold change: Xanthine [1]: 3.7
Fold change: Xanthosine [1]: 5.6
Fold change: α,α-Trehalose [1]: 2.6
Fold change: β-Nicotinate D-ribonucleotide [1]: 5.4
Fold change: L-Saccharopine ([1]; first listing in Table 3): 3.0
Clostridia abundance ([2]; cecum, class level, printed as change 77% to 49%): 49%
Lachnospiraceae population ([2]; cecum, family level, printed as change 68% to 36%): 36%
Clostridiales abundance ([2]; cecum, order level, printed as change 77% to 49%): 49%
Proteobacteria abundance ([2]; cecum, phylum level, printed as change 11% to 29%): 29%
Firmicutes abundance ([2]; cecum, phylum level, printed as change 89% to 71%): 71%
Relative abundance (%) Bacillaceae [2, 3]: 3.2%
Relative abundance (%) Bifidobacteriaceae [2, 3]: 0.0%
Relative abundance (%) Clostridiaceae 1 [2, 3]: 0.0%
Relative abundance (%) Enterobacteriaceae [2, 3]: 17.1%
Relative abundance (%) Enterococcaceae [2, 3]: 0.0%
Relative abundance (%) Erysipelotrichaceae [2, 3]: 21.1%
Relative abundance (%) Lachnospiraceae [2, 3]: 40.2%
Relative abundance (%) Lactobacillaceae [2, 3]: 0.0%
Relative abundance (%) Non-Enterobacteriaceae Gammaproteobacteria [2, 3]: 0.0%
Relative abundance (%) Peptostreptococcaceae [2, 3]: 3.6%
Relative abundance (%) Ruminococcaceae [2, 3]: 14.6%
Relative abundance (%) Unassigned [2, 3]: 0.0%
Relative abundance (%) Bacillaceae [2, 4]: 0.0%
Relative abundance (%) Bifidobacteriaceae [2, 4]: 0.0%
Relative abundance (%) Clostridiaceae 1 [2, 4]: 0.0%
Relative abundance (%) Enterobacteriaceae [2, 4]: 7.3%
Relative abundance (%) Enterococcaceae [2, 4]: 0.0%
Relative abundance (%) Erysipelotrichaceae [2, 4]: 33.5%
Relative abundance (%) Lachnospiraceae [2, 4]: 54.6%
Relative abundance (%) Lactobacillaceae [2, 4]: 0.0%
Relative abundance (%) Non-Enterobacteriaceae Gammaproteobacteria [2, 4]: 0.0%
Relative abundance (%) Peptostreptococcaceae [2, 4]: 0.0%
Relative abundance (%) Ruminococcaceae [2, 4]: 4.4%
Relative abundance (%) Unassigned [2, 4]: 0.0%
Relative abundance (%) Bacillaceae [2, 5]: 3.3%
Relative abundance (%) Bifidobacteriaceae [2, 5]: 0.3%
Relative abundance (%) Clostridiaceae 1 [2, 5]: 0.0%
Relative abundance (%) Enterobacteriaceae [2, 5]: 54.9%
Relative abundance (%) Enterococcaceae [2, 5]: 0.0%
Relative abundance (%) Erysipelotrichaceae [2, 5]: 23.0%
Relative abundance (%) Lachnospiraceae [2, 5]: 13.4%
Relative abundance (%) Lactobacillaceae [2, 5]: 0.0%
Relative abundance (%) Non-Enterobacteriaceae Gammaproteobacteria [2, 5]: 0.0%
Relative abundance (%) Peptostreptococcaceae [2, 5]: 0.0%
Relative abundance (%) Ruminococcaceae [2, 5]: 4.8%
Relative abundance (%) Unassigned [2, 5]: 0.0%
Relative abundance (%) Bacillaceae [2, 6]: 0.0%
Relative abundance (%) Bifidobacteriaceae [2, 6]: 0.0%
Relative abundance (%) Clostridiaceae 1 [2, 6]: 1.4%
Relative abundance (%) Enterobacteriaceae [2, 6]: 26.8%
Relative abundance (%) Enterococcaceae [2, 6]: 0.0%
Relative abundance (%) Erysipelotrichaceae [2, 6]: 8.0%
Relative abundance (%) Lachnospiraceae [2, 6]: 46.8%
Relative abundance (%) Lactobacillaceae [2, 6]: 4.9%
Relative abundance (%) Non-Enterobacteriaceae Gammaproteobacteria [2, 6]: 0.0%
Relative abundance (%) Peptostreptococcaceae [2, 6]: 0.0%
Relative abundance (%) Ruminococcaceae [2, 6]: 11.8%
Relative abundance (%) Unassigned [2, 6]: 0.1%
Relative abundance (%) Bacillaceae [2, 7]: 8.2%
Relative abundance (%) Bifidobacteriaceae [2, 7]: 0.0%
Relative abundance (%) Clostridiaceae 1 [2, 7]: 0.0%
Relative abundance (%) Enterobacteriaceae [2, 7]: 38.4%
Relative abundance (%) Enterococcaceae [2, 7]: 0.0%
Relative abundance (%) Erysipelotrichaceae [2, 7]: 0.0%
Relative abundance (%) Lachnospiraceae [2, 7]: 25.3%
Relative abundance (%) Lactobacillaceae [2, 7]: 4.5%
Relative abundance (%) Non-Enterobacteriaceae Gammaproteobacteria [2, 7]: 0.0%
Relative abundance (%) Peptostreptococcaceae [2, 7]: 0.0%
Relative abundance (%) Ruminococcaceae [2, 7]: 23.4%
Relative abundance (%) Unassigned [2, 7]: 0.0%
Abundance (%) in cecal microbiota: Anaerostipes ([2]; genus level): 1.4%
Abundance (%) in cecal microbiota: Anaerotruncus ([2]; genus level): 0.0%
Abundance (%) in cecal microbiota: Bacillus ([2]; genus level): 3.0%
Abundance (%) in cecal microbiota: Bifidobacterium ([2]; genus level): 0.1%
Abundance (%) in cecal microbiota: Blautia ([2]; genus level): 0.0%
Abundance (%) in cecal microbiota: Butyricicoccus ([2]; genus level): 0.0%
Abundance (%) in cecal microbiota: CAG-56 ([2]; genus level): 0.7%
Abundance (%) in cecal microbiota: Caproiciproducens ([2]; genus level): 0.3%
Abundance (%) in cecal microbiota: Clostridioides ([2]; genus level): 0.7%
Abundance (%) in cecal microbiota: Clostridium sensu stricto 1 ([2]; genus level): 0.3%
Abundance (%) in cecal microbiota: Enterococcus ([2]; genus level): 0.0%
Abundance (%) in cecal microbiota: Erysipelatoclostridium ([2]; genus level): 1.1%
Abundance (%) in cecal microbiota: Escherichia -Shigella ([2]; genus level): 26.6%
Abundance (%) in cecal microbiota: Flavonifractor ([2]; genus level): 7.7%
Abundance (%) in cecal microbiota: Lachnoclostridium ([2]; genus level): 8.1%
Abundance (%) in cecal microbiota: Lactobacillus ([2]; genus level): 1.9%
Abundance (%) in cecal microbiota: Negativibacillus ([2]; genus level): 1.6%
Abundance (%) in cecal microbiota: Oscillibacter ([2]; genus level): 0.8%
Abundance (%) in cecal microbiota: Ruminiclostridium 9 ([2]; genus level): 0.0%
Abundance (%) in cecal microbiota: Ruminococcaceae UCG-005 ([2]; genus level): 0.0%
Abundance (%) in cecal microbiota: Ruminococcaceae UCG-014 ([2]; genus level): 0.4%
Abundance (%) in cecal microbiota: Sellimonas ([2]; genus level): 0.0%
Abundance (%) in cecal microbiota: Shuttleworthia ([2]; genus level): 0.0%
Abundance (%) in cecal microbiota: Tyzzerella ([2]; genus level): 0.4%
Abundance (%) in cecal microbiota: UBA1819 ([2]; genus level): 1.1%
Abundance (%) in cecal microbiota: [Clostridium] inoculum group ([2]; genus level): 2.8%
Abundance (%) in cecal microbiota: [Eubacterium] coprostanoligenes group ([2]; genus level): 0.0%
Abundance (%) in cecal microbiota: [Ruminococcus] gauvreauii group ([2]; genus level): 0.03%
Abundance (%) in cecal microbiota: [Ruminococcus] torques group ([2]; genus level): 13.9%
Microbial richness ([2]; vs GI-7-treated, PC and NC groups, P < 0.05): higher
